Measurements published in US9963660B2, “Method of cleaning with enhanced bacteriostatic action using a composition of alcohol and lactate esters” (Vertec Biosolvent, Inc., priority 2015, dated 2018).

Experiment: Peanut butter removal from coated metal mesh strips (cleaning/solvating action)
Settings: neat solvents, 40° C., 20 minutes dip, 90 minutes drying
Description: Peanut butter is a complex mixture of fats, carbohydrates and proteins that are emulsified in processing equipment under controlled conditions. Because of its composition that contains all the major food groups and because the product is made by controlled food processing methods, peanut butter was chosen for an initial cleaning examination. Commercially available […]® peanut butter made by Best Foods Company was used. Commercially available metal screen mesh (size 20 mesh) was cut into small (25 mm×75 mm), equal sized strips that were dipped into heated (about 50° C.) peanut butter and then drip dried in air. […] The strips were then dried under forced air at room temperature and their weights were measured periodically. After 90 minutes of drying the test results were evaluated to determine the comparative differences between the effects of the solvent compositions. Commercial grade of ethanol is typically denatured by small quantities of additives. Ethyl acetate is an approved denaturant for ethanol and it is non-toxic for food and biological related applications. In all of the examples for this invention the ethanol used was denatured by about 5% (w/w) ethyl acetate.

SMILES	Weight loss [g]
CCOC(=O)C(C)O (centres unmarked) [Ethyl lactate]	0.131
CCO [Ethanol]	0.41
